PubChem BioAssay AID624099, ICCB-Longwood, 2012
Shown is one part, drawn at random, of about 21,000 deposited reagents. 497 of them (2.4%) were called active. 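Higher z means weaker E2 silencing; only reporter increases were scored, and knock-downs that hurt cell survival may mask genuine repressor factors.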 The numbers tell different reagents against one gene apart. Reagent sequences are not shown.

- Screen: 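Human genes that papillomavirus E2 requires to repress the HPV18 LCR promoter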 (primary screen)
- System: human C33A cervical carcinoma cells (HPV-negative) stably expressing BPV1 E2 and an HPV18 LCR luciferase reporter
- Reagent: siRNA pool against human genes, 40 nM
- Time to read-out: 72 h
- Detection: 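HPV18 LCR reporter light per well, converted to plate-wise z-scores that exclude control wells, and averaged over triplicate plates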
- Scale: mean z-score and z-score: higher = stronger reporter signal, weaker E2 silencing
- Hit rule: 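Mean z ≥ 2 together with z ≥ 2 in two or more of the three replicates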

| Target gene | reagent no. | mean z-score | z-score, replicate A | z-score, replicate B | z-score, replicate C | activity call |
| --- | --- | --- | --- | --- | --- | --- |
| LOC400627 | 1 | 2.29 | 2.66 | 1.68 | 2.53 | active |
| UGT8 | 1 | 0.42 | 0.28 | 0.42 | 0.55 | inactive |
| NARF | 1 | 0.29 | 0.33 | 0.31 | 0.23 | inactive |
| TAP1 | 1 | 0.07 | 0.28 | 0.03 | -0.1 | inactive |
| LINC02870 | 1 | -0.21 | -0.43 | -0.12 | -0.08 | inactive |
| H2BC17 | 1 | 0.17 | 0.02 | 0.2 | 0.3 | inactive |
| PDK1 | 1 | 0.91 | 0.97 | 0.55 | 1.22 | inactive |
| RPP40 | 1 | -0.58 | -0.7 | -0.62 | -0.43 | inactive |
| LOC339065 (retired record) | 1 | -0.5 | -0.54 | -0.77 | -0.19 | inactive |
| PCDHA9 | 1 | -0.21 | -0.34 | -0.02 | -0.26 | inactive |
| GNAI1 | 1 | 1.95 | 1.9 | 2.14 | 1.8 | inactive |
| GLIS3 | 1 | -0.78 | -0.79 | -0.6 | -0.95 | inactive |
| CXCL9 | 1 | -0.03 | -0.02 | -0.26 | 0.2 | inactive |
| ABCA6 | 1 | -0.84 | -1.02 | -0.74 | -0.76 | inactive |
| LOC389347 (retired record) | 1 | 0.03 | -0.22 | 0.18 | 0.14 | inactive |
| SLC29A1 | 1 | -0.62 | -0.58 | -0.63 | -0.66 | inactive |
| LYST | 1 | -0.72 | -0.8 | -0.71 | -0.65 | inactive |
| MANBA | 1 | -0.19 | -0.44 | 0.1 | -0.23 | inactive |
| RALBP1 | 1 | -1.06 | -1.16 | -0.93 | -1.08 | inactive |
| SIGLEC1 | 1 | 1.25 | 1.24 | 1.32 | 1.19 | inactive |
| EML2 | 1 | 2.08 | 2.06 | 1.99 | 2.19 | active |
| EGR3 | 1 | -0.43 | -0.28 | -0.74 | -0.28 | inactive |
| B3GALT4 | 1 | -1.16 | -1.03 | -1.08 | -1.36 | inactive |
| NR2C2AP | 1 | -0.99 | -0.5 | -1.46 | -1.01 | inactive |
| LINC00994 | 1 | 0.71 | 0.92 | 0.71 | 0.49 | inactive |
| LOC401622 (retired record) | 1 | 0.5 | 0.32 | 0.92 | 0.25 | inactive |
| RRP12 | 1 | 0.08 | 0.31 | -0.27 | 0.19 | inactive |
| ADH5P4 | 1 | 0.88 | 0.71 | 0.85 | 1.07 | inactive |
| USP16 | 1 | -0.3 | -0.57 | -0.32 | 0 | inactive |
| LOC400870 (retired record) | 1 | 0.24 | 0.19 | 0.05 | 0.46 | inactive |
| TEX12 | 1 | 0.85 | 1.06 | 1.18 | 0.3 | inactive |
| ZNF443 | 1 | 0.36 | 0.7 | -0.09 | 0.47 | inactive |
| COPB1 | 1 | -1.22 | -1.59 | -1.03 | -1.03 | inactive |
| SLC26A10P | 1 | -0.8 | -1.1 | -0.52 | -0.78 | inactive |
| MET | 1 | -0.47 | -0.85 | -0.14 | -0.41 | inactive |
| TGDS | 1 | -0.29 | -0.6 | -0.08 | -0.2 | inactive |
| LGI2 | 1 | 1.82 | 1.67 | 2.3 | 1.49 | inactive |
| NRBF2 | 1 | 0.64 | 0.75 | 0.45 | 0.73 | inactive |
| WSCD2 | 1 | 0.49 | 0.48 | 0.2 | 0.81 | inactive |
| ZBTB21 | 1 | 1.92 | 2.25 | 1.9 | 1.59 | inactive |
| PGBD3 | 1 | 0.04 | -0.07 | 0.07 | 0.11 | inactive |
| BORCS6 | 1 | -1.18 | -1.49 | -1.17 | -0.89 | inactive |
| GOLPH3 | 1 | -0.47 | -0.85 | -0.47 | -0.1 | inactive |
| BBC3 | 1 | -0.44 | -0.44 | -0.43 | -0.44 | inactive |
| CYB5B | 1 | -0.1 | 0.33 | -0.08 | -0.56 | inactive |
| TSPYL2 | 1 | -0.33 | -0.95 | -0.37 | 0.34 | inactive |
| AKTIP | 1 | -0.12 | -0.66 | 0.13 | 0.16 | inactive |
| TMEM33 | 1 | -0.23 | -0.65 | -0.43 | 0.38 | inactive |
| UGT2B10 | 1 | -0.95 | -1.01 | -0.98 | -0.85 | inactive |
| SPESP1 | 1 | -0.87 | -1.22 | -0.65 | -0.75 | inactive |
| LINC01101 | 1 | 1.26 | 1.13 | 1.17 | 1.5 | inactive |
| KRT222 | 1 | 0.79 | 1.05 | 0.6 | 0.73 | inactive |
| MC4R | 1 | 0.04 | -0.22 | 0.37 | -0.04 | inactive |
| DNAAF6 | 1 | 0.08 | 0.01 | 0.06 | 0.18 | inactive |
| LRRC58 | 1 | 0.27 | -0.04 | 0.18 | 0.68 | inactive |
| AS3MT | 1 | 1.12 | 1.16 | 1.27 | 0.93 | inactive |
| PRRT4 | 1 | 0.81 | 0.83 | 1.02 | 0.59 | inactive |
| PRRT4 | 2 | 0.65 | 0.65 | 0.58 | 0.71 | inactive |

Targets listed so far whose target name starts with T or t:
| Target gene | reagent no. | mean z-score | z-score, replicate A | z-score, replicate B | z-score, replicate C | activity call |
| --- | --- | --- | --- | --- | --- | --- |
| TAP1 | 1 | 0.07 | 0.28 | 0.03 | -0.1 | inactive |
| TEX12 | 1 | 0.85 | 1.06 | 1.18 | 0.3 | inactive |
| TGDS | 1 | -0.29 | -0.6 | -0.08 | -0.2 | inactive |
| TSPYL2 | 1 | -0.33 | -0.95 | -0.37 | 0.34 | inactive |
| TMEM33 | 1 | -0.23 | -0.65 | -0.43 | 0.38 | inactive |
